Values from PubChem BioAssay AID624099 (ICCB-Longwood, 2012)
In all, the deposit lists about 21,000 reagents; shown is a random part of them. 497 of all reagents (2.4%) were called active. 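Higher z means weaker E2 silencing; only reporter increases were scored, and knock-downs that hurt cell survival may mask genuine repressor factors.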 Reagent sequences are not shown.

- Assay: 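Host factors E2 relies on to silence an HPV18 LCR reporter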 (primary screen)
- Cell system: human C33A cervical carcinoma cells (HPV-negative) stably expressing BPV1 E2 and an HPV18 LCR luciferase reporter
- Knock-down reagent: siRNA pool against human genes, 40 nM
- Timing: 72 h
- Measured: 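Per-well luciferase luminescence, z-scored on each plate against the plate mean and SD with control wells left out, then averaged across three replicate plates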
- Reading the numbers: mean z-score and z-score: higher = stronger reporter signal, weaker E2 silencing
- Rule for the call: 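Mean z ≥ 2 together with z ≥ 2 in two or more of the three replicates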

For AQP11 (aquaporin 11) the deposit lists mean z-score 1.57; z-score, replicate B = 1.51; z-score, replicate C = 1.62; inactive.
ARMC10P1 (armadillo repeat containing 10 pseudogene 1) showed mean z-score 0.75; z-score, replicate A = 0.97; z-score, replicate B = 0.84; z-score, replicate C = 0.44; inactive.
PROSER2 (proline and serine rich 2) scored mean z-score 0.66; z-score, replicate A = 0.31; z-score, replicate B = 0.85; z-score, replicate C = 0.81; inactive.
NDRG4 (NDRG family member 4) gave mean z-score 1.11; z-score, replicate A = 1.26; z-score, replicate B = 1.33; z-score, replicate C = 0.75; inactive.
C5orf22 (chromosome 5 open reading frame 22) scored mean z-score 0.69; z-score, replicate A = 0.7; z-score, replicate B = 0.37; z-score, replicate C = 1; inactive.

Copied from the list:
For “Call”, ARMC10P1 (armadillo repeat containing 10 pseudogene 1) reads inactive
For “z-score, replicate C”, PROSER2 (proline and serine rich 2) shows 0.81

Further records follow:
Depletion of KHDRBS1 gave: mean z-score 0.21; z-score, replicate A = 0.71; z-score, replicate B = 0.04; z-score, replicate C = -0.12; inactive.
Depletion of LOC400890 (retired record) gave: mean z-score 0.03; z-score, replicate A = -0.46; z-score, replicate B = 0.12; z-score, replicate C = 0.43; inactive.
For CCR2 (C-C motif chemokine receptor 2) the deposit lists mean z-score -0.3; z-score, replicate A = -0.7; z-score, replicate B = -0.24; z-score, replicate C = 0.05; inactive.
With knock-down of C22orf42 (chromosome 22 open reading frame 42) the results were mean z-score 0.74; z-score, replicate A = 0.68; z-score, replicate B = 0.78; z-score, replicate C = 0.75; inactive.
Against SAMD1 (sterile alpha motif domain containing 1), the values are mean z-score -0.25; z-score, replicate A = 0.1; z-score, replicate B = -0.19; z-score, replicate C = -0.68; inactive.
After knock-down of IDO2 (indoleamine 2,3-dioxygenase 2), the screen gave mean z-score -0.7; z-score, replicate A = -0.74; z-score, replicate B = -0.45; z-score, replicate C = -0.92; inactive.
HYPK (huntingtin interacting protein K) gave mean z-score 2.44; z-score, replicate A = 2.14; z-score, replicate B = 2.77; z-score, replicate C = 2.41; active.
